From PubChem BioAssay AID2391 (Southern Research Specialized Biocontainment Screening …, 2010)
The other results are listed elsewhere or left out. Potency and affinity values are given separately. Some salts or complexes appear as unconnected parts, following the source record. Active and inactive are the calls of the source. How the calls were made is not given here.

Test: RSV antiviral activity via CPE protection, HEp-2 cells, primary 10 µM value included (AID 2391)
Settings: RSV-induced CPE inhibition, at 10 µM, stronger effect = higher value

Compound	CPE inhibition
CCN(CC)CCCOC(=O)C(O)(c1ccccc1)c1ccccc1	inactive: 0.64%
O=[N+]([O-])c1cc([N+](=O)[O-])c(Nc2cccnc2)c([N+](=O)[O-])c1	inactive: 9.11%
O=[N+]([O-])c1ccc2c(c1)C=Nc1ccccc1O2	inactive: 3.2%
CC(C)(C)c1ccc(OP(C)(=O)Nc2ccc(SC(F)(F)F)cc2)cc1 (stereo unspecified)	inactive: 0.5%
Cc1cccc(C)c1OP(C)(N)=O (stereo unspecified)	inactive: 0.46%
COc1ccccc1OP(C)(=O)Nc1ccc(C)cc1 (stereo unspecified)	inactive: 0.87%
Cc1ccc(NP(C)(=O)Oc2ccccc2)c(C)c1 (stereo unspecified)	inactive: 0.48%
CCOC(=O)c1ccc(NP(C)(=O)Oc2ccccc2)cc1 (stereo unspecified)	inactive: 1.63%
Cc1cc(C)cc(OP(C)(N)=O)c1 (stereo unspecified)	inactive: 0.72%
COc1ccccc1OP(C)(=O)Nc1cc(Cl)ccc1C (stereo unspecified)	inactive: 4.95%
COc1ccc(OP(C)(=O)Nc2cccc(F)c2)cc1 (stereo unspecified)	inactive: 0.17%
CP(=S)(Nn1cnnc1)Oc1ccccc1 (stereo unspecified)	inactive: 1.84%
CP(=O)(Nc1ccccc1Br)Oc1ccccc1 (stereo unspecified)	inactive: 1.6%
COc1ccccc1OP(C)(=O)Nc1ccccc1 (stereo unspecified)	inactive: -0.92%
Cc1cccc(C)c1OP(C)(=O)Nc1ccc(SC(F)(F)F)cc1 (stereo unspecified)	inactive: 2.94%
CP(=O)(Oc1ccccc1)OC(c1ccccc1)C(F)(F)F (stereo unspecified)	inactive: 0.48%
CP(=O)(NC(=O)Nc1ccccc1)Oc1ccccc1 (stereo unspecified)	inactive: -0.82%
CCc1ccc(OP(C)(=O)N2CCN(c3ccc([N+](=O)[O-])cc3)CC2)cc1 (stereo unspecified)	inactive: 6.11%
Cc1cc(C)cc(OP(C)(=O)Nc2ccc(SC(F)(F)F)cc2)c1 (stereo unspecified)	inactive: 1.89%

Compound	CPE inhibition
CCOC(=O)c1ccc(NP(C)(=O)Oc2ccc(OC)cc2)cc1 (stereo unspecified)	inactive: 2.81%
CCOP(C)(=S)SCC(=O)NC(C)C(=O)O (stereo unspecified)	inactive: 0.89%
CP(=O)(Nc1ccccn1)Oc1ccc(Cl)cc1 (stereo unspecified)	inactive: -0.21%
O=[N+]([O-])c1cc([N+](=O)[O-])c(-n2nnc3ccccc32)c([N+](=O)[O-])c1	inactive: 2.21%
O=[N+]([O-])c1cc([N+](=O)[O-])c(-c2cnn(-c3ccccc3)c2)c([N+](=O)[O-])c1	inactive: 14.1%
Cc1nc2ccc3ccccc3c2s1.O=[N+]([O-])c1cc([N+](=O)[O-])c(O)c([N+](=O)[O-])c1	inactive: 7.29%
CC1=C2N=C(C=C3N=C(C(C)=C4[N-][C@@](C)([C@@H]5N=C1[C@](C)(CCC(=O)NC[C@@H](C)OP(=O)([O-])O[C@H]1[C@@H](O)[C@@H](n6cnc7cc(C)c(C)cc76)O[C@@H]1CO)[C@H]5CC(N)=O)[C@@](C)(CC(N)=O)[C@@H]4CCC(N)=O)[C@@](C)(CC(N)=O)[C@@H]3CCC(N)=O)C(C)(C)[C@@H]2CCC(N)=O.[C-]#N.[Co+3]	inactive: -0.04%
O=[N+]([O-])c1cc([N+](=O)[O-])c(Nc2nnnn2CCO)c([N+](=O)[O-])c1	inactive: 2.15%
CCOC(=O)C(CC)C1=NC(C)(C)Cc2ccccc21.O=[N+]([O-])c1cc([N+](=O)[O-])c(O)c([N+](=O)[O-])c1 (stereo unspecified)	inactive: -0.82%
COc1ccccc1OP(C)(=O)Nc1c(C)cccc1C (stereo unspecified)	inactive: 0.72%
CN1CCCCC1COC(=O)C1(O)c2ccccc2CCc2ccccc21 (stereo unspecified)	inactive: 0.78%
CCCOc1ccc(NP(C)(=O)Oc2ccc(Cl)cc2)cc1 (stereo unspecified)	inactive: -0.58%
CP(=O)(Nc1ccc(SC(F)(F)F)cc1)Oc1ccccc1 (stereo unspecified)	inactive: 7.19%
O=C(O)c1cccc(Nc2c([N+](=O)[O-])cc([N+](=O)[O-])cc2[N+](=O)[O-])c1	inactive: 0.24%
CC1=NCCc2c1[nH]c1ccccc21.O=[N+]([O-])c1cc([N+](=O)[O-])c(O)c([N+](=O)[O-])c1	inactive: 6.09%
COc1ccccc1OP(C)(=O)Nc1cccc(Br)c1 (stereo unspecified)	inactive: -1.83%
CCOC(=O)c1ccc(NP(C)(=O)Oc2cc(C)cc(C)c2)cc1 (stereo unspecified)	inactive: 2.37%
Cc1cc(C)cc(OP(C)(=O)Nc2ccc(C)cc2C)c1 (stereo unspecified)	inactive: 1.39%
Cc1ccc(C)c(NP(C)(=O)Oc2ccccc2)c1 (stereo unspecified)	inactive: 1.86%

Compound	CPE inhibition
Cc1cc(C)cc(OP(C)(=O)Nc2ccccn2)c1 (stereo unspecified)	inactive: -1.47%
CP(=O)(Nc1cccc(Br)c1)Oc1ccccc1 (stereo unspecified)	inactive: 4.03%
CP(=O)(Nc1ccccc1F)Oc1ccccc1 (stereo unspecified)	inactive: 0.62%
CC(C)c1ccc(OP(C)(=O)Nc2ccc(SC(F)(F)F)cc2)cc1 (stereo unspecified)	inactive: 2.5%
O=C(OC1CN2CCC1CC2)c1ccc([N+](=O)[O-])cc1 (stereo unspecified)	inactive: 3%
O=C(OCCN1CCN(CCOCc2ccccc2)CC1)C(O)(c1ccccc1)c1ccccc1	inactive: 0.73%
COc1ccc2c(c1O)-c1c(O)c(OC)cc3c1[C@H](C2)[N+](C)(C)CC3.O=[N+]([O-])c1cc([N+](=O)[O-])c([O-])c([N+](=O)[O-])c1[O-]	inactive: 2.1%
CCOC(=O)c1ccc(NP(C)(=O)Oc2ccc(F)cc2)cc1 (stereo unspecified)	inactive: 2.73%
COc1ccc(OP(C)(=O)Nc2ccc(SC(F)(F)F)cc2)cc1 (stereo unspecified)	inactive: 2.96%
CCN(CC)CCCOC(=O)C(O)(c1ccccc1)C1CCCCC1 (stereo unspecified)	inactive: -0.65%
CP(=O)(Nc1ccccc1)Oc1ccc(F)cc1 (stereo unspecified)	inactive: -0.71%
CCCCCOc1ccc(NP(C)(=O)Oc2ccc(Cl)cc2Cl)cc1 (stereo unspecified)	inactive: -0.27%
O=[N+]([O-])c1cc([N+](=O)[O-])c(OC2CCCCC2O)c([N+](=O)[O-])c1 (stereo unspecified)	inactive: 0.82%
COc1ccc(OP(C)(=O)Nc2cccc(Br)c2)cc1 (stereo unspecified)	inactive: 1.34%
CN(C)CCOC(=O)C(O)(c1ccccc1)C1CCCCC1 (stereo unspecified)	inactive: -1.26%
COc1ccc(NP(C)(=O)Oc2ccccc2OC)cc1 (stereo unspecified)	inactive: 0.63%
O=[N+]([O-])c1ccc(OP2(=O)COCCO2)cc1 (stereo unspecified)	inactive: 0.95%
O=[N+]([O-])c1cc([N+](=O)[O-])c(NCC2CCS(=O)(=O)C2)c([N+](=O)[O-])c1 (stereo unspecified)	inactive: 5.09%
